Experimental data: publication PMC10800876, “Evaluation of proline-rich antimicrobial peptides as potential lead structures for novel antimycotics against Cryptococcus neoformans” (Frontiers in Microbiology, 2024)
Some entries repeat one wording, which the source may state once for all of them. Starred links: 1 amine or outer side, 2 acyl side, 3 side chain; linkers in the order of their positions; H or OH if unused. Non-standard residues stand in square brackets, D forms with d. Residues, ends and D or L forms follow the SMILES beside them. *: point of attachment. 5FAM = O=C1OC2(c3ccc(O)cc3Oc3cc(O)ccc32)c2ccc(C(=O)*)cc21; δOrn(α-TMG) = CN(C)C(=N[C@@H](CCCN[*:1])C(=O)[*:2])N(C)C; Ac6c = NC1(C(=O)O)CCCCC1; Orn = NCCC[C@H](N)C(=O)O

System: C. neoformans 1841
Assay: Confocal laser scanning microscopy, uptake of Cf-labeled peptides
Format: cell-based, Cryptococcus neoformans
Settings: Cf-labeled peptide 25 μmol/L, 30°C, 3 h, CLSM

SMILES	fluorescence in cells (intracellular uptake)
CC[C@H](C)[C@H](NC(=O)[C@H](Cc1ccc(O)cc1)NC(=O)[C@@H](NC(=O)[C@@H]1CCCN1C(=O)[C@H](CCCNC(=N)N)NC(=O)[C@H](CC(N)=O)NC(=O)[C@H](CC(N)=O)NC(=O)[C@H](CCCNC(=O)c1ccc2c(c1)C(=O)OC21c2ccc(O)cc2Oc2cc(O)ccc21)N=C(N(C)C)N(C)C)C(C)C)C(=O)N1CCC[C@H]1C(=O)N[C@@H](CCCNC(=N)N)C(=O)N1CCC[C@H]1C(=O)N[C@@H](CCCNC(=N)N)C(=O)N1CCC[C@H]1C(=O)N1CCC[C@H]1C(=O)N[C@@H](Cc1c[nH]cn1)C(=O)N1CCC[C@H]1C(=O)N[C@@H](CCCNC(=N)N)C(=O)N[C@@H](CC(C)C)C(N)=O [Cf-Api88] (5FAM-[δOrn(α-TMG)]NNRPVYIPRPRPPHPRL-NH2)	intense, non-uniformly distributed fluorescence, mainly in the cytoplasmic region
CC[C@H](C)[C@H](NC(=O)[C@H](Cc1ccc(O)cc1)NC(=O)[C@@H](NC(=O)[C@@H]1CCCN1C(=O)[C@H](CCCNC(=N)N)NC(=O)[C@H](CC(N)=O)NC(=O)[C@H](CC(N)=O)NC(=O)[C@H](CCCNC(=O)c1ccc2c(c1)C(=O)OC21c2ccc(O)cc2Oc2cc(O)ccc21)N=C(N(C)C)N(C)C)C(C)C)C(=O)N1CCC[C@H]1C(=O)N[C@@H](CCCNC(=N)N)C(=O)N1CCC[C@H]1C(=O)N[C@@H](CCCNC(=N)N)C(=O)N1CCC[C@H]1C(=O)N1CCC[C@H]1C(=O)N[C@@H](Cc1c[nH]cn1)C(=O)N1CCC[C@H]1C(=O)N[C@@H](CCCNC(=N)N)C(=O)N[C@@H](CC(C)C)C(=O)O [Cf-Api137] (5FAM-[δOrn(α-TMG)]NNRPVYIPRPRPPHPRL-OH)	much weaker or no fluorescence
CC[C@H](C)[C@H](NC(=O)[C@H](CCCNC(=O)c1ccc2c(c1)C(=O)OC21c2ccc(O)cc2Oc2cc(O)ccc21)N=C(N(C)C)N(C)C)C(=O)N[C@@H](CCCN)C(=O)N[C@H](C(=O)N[C@@H](CCCN)C(=O)N[C@@H](CCCNC(=N)N)C(=O)N1CCC[C@H]1C(=O)N[C@H](C(=O)N[C@@H](Cc1ccc(O)cc1)C(=O)N[C@@H](CCCN)C(=O)N1CCC[C@H]1C(=O)N[C@@H](CCCNC(=N)N)C(=O)N1CCC[C@H]1C(=O)N[C@@H](CCCNC(=N)N)C(=O)N1CCC[C@H]1C(=O)N1CCC[C@H]1C(=O)N[C@@H](Cc1c[nH]cn1)C(=O)N1CCC[C@H]1C(=O)N[C@@H](CCCNC(=N)N)C(=O)N[C@@H](CC(C)C)C(=O)O)C(C)C)[C@@H](C)CC [Cf-Api795] (5FAM-[δOrn(α-TMG)]I[Orn]I[Orn]RPVY[Orn]PRPRPPHPRL-OH)	intense, non-uniformly distributed fluorescence, mainly in the cytoplasmic region
CC[C@H](C)[C@H](NC(=O)[C@H](Cc1ccc(O)cc1)NC(=O)[C@@H](NC(=O)[C@@H]1CCCN1C(=O)[C@H](CCCNC(=N)N)NC(=O)[C@H](CC(N)=O)NC(=O)[C@H](CC(N)=O)NC(=O)CNC(=O)c1ccc2c(c1)C(=O)OC21c2ccc(O)cc2Oc2cc(O)ccc21)C(C)C)C(=O)N1CCC[C@H]1C(=O)N[C@@H](CCC(N)=O)C(=O)N1CCC[C@H]1C(=O)N[C@@H](CCCNC(=N)N)C(=O)N1CCC[C@H]1C(=O)N1CCC[C@H]1C(=O)N[C@@H](Cc1c[nH]cn1)C(=O)N1CCC[C@H]1C(=O)N[C@@H](CCCNC(=N)N)C(=O)N[C@@H](CC(C)C)C(=O)O [Cf-Apidaecin 1b] (5FAM-GNNRPVYIPQPRPPHPRL-OH)	no fluorescence could be detected in the majority of cells
CC(C)C[C@H](NC(=O)[C@H](Cc1ccc(O)cc1)NC(=O)[C@@H]1CCCN1C(=O)[C@H](CCCNC(=N)N)NC(=O)[C@@H]1CCCN1C(=O)[C@H](CCCCN)NC(=O)[C@H](CCCCN)NC(=O)[C@@H]1CCCN1C(=O)[C@H](CCCNC(=N)N)NC(=O)C1(NC(=O)c2ccc3c(c2)C(=O)OC32c3ccc(O)cc3Oc3cc(O)ccc32)CCCCC1)C(=O)N1CCC[C@H]1C(=O)N[C@@H](CCCNC(=N)N)C(=O)N1CCC[C@H]1C(=O)N[C@@H](CCCNC(=N)N)C(=O)N1CCC[C@H]1C(=O)N1CCC[C@H]1C(=O)N[C@@H](CCCNC(=N)N)C(=O)N1CCC[C@H]1C(=O)N[C@H](C(=O)N[C@@H](CCCNC(=N)N)C(N)=O)C(C)C [Cf-Chex1Arg20 D4K] (5FAM-[Ac6c]RPKKPRPYLPRPRPPRPVR-NH2)	intense, non-uniformly distributed fluorescence, mainly in the cytoplasmic region
CC(C)C[C@H](NC(=O)[C@H](Cc1ccc(O)cc1)NC(=O)[C@@H]1CCCN1C(=O)[C@H](CCCNC(=N)N)NC(=O)[C@@H]1CCCN1C(=O)[C@H](CCCCN)NC(=O)[C@H](CC(=O)O)NC(=O)[C@@H]1CCCN1C(=O)[C@H](CCCNC(=N)N)NC(=O)C1(NC(=O)c2ccc3c(c2)C(=O)OC32c3ccc(O)cc3Oc3cc(O)ccc32)CCCCC1)C(=O)N1CCC[C@H]1C(=O)N[C@@H](CCCNC(=N)N)C(=O)N1CCC[C@H]1C(=O)N[C@@H](CCCNC(=N)N)C(=O)N1CCC[C@H]1C(=O)N1CCC[C@H]1C(=O)N[C@@H](CCCNC(=N)N)C(=O)N1CCC[C@H]1C(=O)N[C@H](C(=O)N[C@@H](CCCNC(=N)N)C(N)=O)C(C)C [Cf-Chex1Arg20] (5FAM-[Ac6c]RPDKPRPYLPRPRPPRPVR-NH2)	intense, non-uniformly distributed fluorescence, mainly in the cytoplasmic region
CC[C@H](C)[C@H](NC(=O)[C@@H](CCCNC(=N)N)NC(=O)[C@H](CCCNC(=N)N)NC(=O)[C@@H]1CCCN1C(=O)[C@@H]1CCCN1C(=O)[C@H](CCCNC(=N)N)NC(=O)[C@@H]1CCCN1C(=O)[C@H](CCCNC(=N)N)NC(=O)[C@@H]1CCCN1C(=O)[C@H](CC(C)C)NC(=O)[C@H](Cc1ccc(O)cc1)NC(=O)[C@@H]1CCCN1C(=O)[C@@H]1CCCN1C(=O)[C@H](CCCCN)NC(=O)[C@H](CC(=O)O)NC(=O)[C@@H](NC(=O)c1ccc2c(c1)C(=O)OC21c2ccc(O)cc2Oc2cc(O)ccc21)C(C)C)C(=O)N[C@@H](Cc1ccc(O)cc1)C(=O)N[C@@H](CC(N)=O)C(=O)N[C@H](CCCNC(=N)N)C(N)=O [Cf-Onc112] (5FAM-VDKPPYLPRPRPPR[dR]IYN[dR]-NH2)	intense, non-uniformly distributed fluorescence, mainly in the cytoplasmic region
